The values that follow come from patent US20220346382A1, “COMPOSITION FOR TREATING AND PREVENTING BACTERIAL GROWTH ON A SUBSTRATE” (PETROLIAM NASIONAL BERHAD (PETRONAS), priority 2019, published 2022).

SMILES strings stand for the structures.

The data set can be described thus: Corrosion rate by weight loss and pitting of carbon steel coupons immersed in the formulations. The note with it: seven days immersion, 35-40° C., weight loss.

Compound `CSCC[C@@H](N)C(=O)O` [MT, D-Methionine] had a corrosion rate of 0.03 mm/yr.
